Results of unrelated studies side by side (data: NIAID ChemDB).

Common to all: tests in culture; species: Mycobacterium avium complex; read-out: MIC50

A number after MIC or MFC names an inhibition level or a share of isolates. a–b is a range or a potency band. Lines come from different laboratories, so protocols vary. An empty or dashed field is not shown.

O=C(O)c1cn(-c2ccc(F)cc2F)c2c(F)c(N3CCNCC3)c(F)cc2c1=O ; strain: 14 strains ; result: 16 µg/mL
COc1c(N2CCNC(C)C2)c(F)cc2c(=O)c(C(=O)O)cn(C3CC3)c12 ; strain: 20 strains ; result: 3.13 µg/mL
NC1CN(c2cc3c(cc2F)c(=O)c(C(=O)O)cn3C2CC2)CC1C1CC1 ; result: 8 µg/mL
O=C(O)c1cn(C2CC2)c2c(F)c(N3CCS(=O)(=O)CC3)c(F)cc2c1=O ; strain: 14 strains ; result: 2 µg/mL
Nc1nc(-n2cc(C(=O)O)c(=O)c3cc(F)c(N4CC(O)C4)c(Cl)c32)c(F)cc1F ; strain: 20 strains ; result: 3.13 µg/mL
CC(C)(N)C1CCN(c2c(F)cc3c(=O)c(C(=O)O)cn(C4CC4)c3c2F)C1 ; strain: 14 strains ; result: 4 µg/mL
CC[C@H]1OC(=O)[C@H](C)[C@@H](O[C@H]2C[C@@](C)(OC)[C@@H](O)[C@H](C)O2)[C@H](C)[C@@H](O[C@@H]2O[C@H](C)C[C@H](N(C)C)[C@H]2O)[C@](C)(OC)C[C@@H](C)C(=O)[C@H](C)[C@@H](O)[C@]1(C)O ; strain: 32 isolates ; result: 1 µg/mL
C[C@H]1COc2c(N3CCN(C)CC3)c(F)cc3c(=O)c(C(=O)O)cn1c23 ; strain: 12 strains ; result: 4 µg/mL
CCn1cc(C(=O)O)c(=O)c2cc(F)c(N3CCNCC3)cc21 ; result: 16 µg/mL
CO[C@H]1/C=C/O[C@@]2(C)Oc3c(C)c(O)c4c(O)c(c(/C=N/N5CCN(C)CC5)c(O)c4c3C2=O)NC(=O)/C(C)=C\C=C\[C@H](C)[C@H](O)[C@@H](C)[C@@H](O)[C@@H](C)[C@H](OC(C)=O)[C@@H]1C ; strain: 87 isolates ; result: 0.9 µg/mL
CN[C@@H]1[C@H](O)[C@H](NC)[C@H]2O[C@@]3(O)C(=O)C[C@@H](C)O[C@H]3O[C@@H]2[C@H]1O ; strain: 25 isolates ; result: 64 µg/mL
CC[C@H]1OC(=O)[C@H](C)[C@@H](O[C@H]2C[C@@](C)(OC)[C@@H](O)[C@H](C)O2)[C@H](C)[C@@H](O[C@@H]2O[C@H](C)C[C@H](N(C)C)[C@H]2O)[C@](C)(O)C[C@@H](C)CN(C)[C@H](C)[C@@H](O)[C@]1(C)O ; strain: 28 strains ; result: 32 µg/mL
CN1CC2CCC1CN2c1c(F)cc2c(=O)c(C(=O)O)cn(C3CC3)c2c1F ; strain: 14 strains ; result: 1 µg/mL
CN(C)CC1CCN(c2c(F)cc3c(=O)c(C(=O)O)cn(C4CC4)c3c2F)C1 ; result: 0.5 µg/mL
CNn1cc(C(=O)O)c(=O)c2cc(F)c(N3CCN(C)CC3)cc21 ; strain: 22 strains ; result: 8 µg/mL
C[C@@H]1CN(c2c(F)c(N)c3c(=O)c(C(=O)O)cn(C4CC4)c3c2F)C[C@H](C)N1 ; strain: 37 strains ; result: 2 µg/mL
O=C(O)c1cn(C2CC2)c2nc(N3CCN4CC3C4)c(F)cc2c1=O ; result: 8 µg/mL
O=C(O)c1cn(C2CC2)c2c(F)c(N3CC4CC3CN4)c(F)cc2c1=O ; strain: 14 strains ; result: 2 µg/mL
CCC1CN(c2c(F)cc3c(=O)c(C(=O)O)cn(C4CC4)c3c2Cl)CCN1 ; strain: 14 strains ; result: 2 µg/mL
NNC(=O)c1ccncc1 ; strain: 20 strains ; result: 1.6 µg/mL
CC[C@@H](CO)NCCN[C@@H](CC)CO ; result: <0.5 µg/mL
CC(=O)NC[C@H]1CN(c2ccc(N3CCOCC3)c(F)c2)C(=O)O1 ; strain: 13 isolates ; result: 32 µg/mL
CNC1CCN(c2c(F)cc3c(=O)c(C(=O)O)cn(C4CC4)c3c2F)C1 ; strain: 14 strains ; result: 2 µg/mL
CO[C@H]1/C=C/O[C@@]2(C)Oc3c(C)c(O)c4c(O)c(c(/C=N/N5CCN(C)CC5)c(O)c4c3C2=O)NC(=O)/C(C)=C\C=C\[C@H](C)[C@H](O)[C@@H](C)[C@@H](O)[C@@H](C)[C@H](OC(C)=O)[C@@H]1C ; strain: 20 strains ; result: 8 µg/mL
O=C(O)c1cn(C2CC2)c2c(F)c(N3CC4CC3CN4)c(F)cc2c1=O ; result: 2 µg/mL
COc1c(N2CCNC(C)C2)c(F)cc2c(=O)c(C(=O)O)cn(C3CC3)c12 ; result: 2–8 µg/mL
NC(=O)c1cnccn1 ; strain: 20 strains ; result: >1600 µg/mL
CC[C@H]1OC(=O)[C@H](C)[C@@H](O[C@H]2C[C@@](C)(OC)[C@@H](O)[C@H](C)O2)[C@H](C)[C@@H](O[C@@H]2O[C@H](C)C[C@H](N(C)C)[C@H]2O)[C@](C)(OC)C[C@@H](C)C(=O)[C@H](C)[C@@H](O)[C@]1(C)O ; strain: 22 strains ; result: ≤0.25 µg/mL
O=C(O)c1cn(C2CC2)c2c(Cl)c(N3C[C@@H]4CCCN[C@@H]4C3)c(F)cc2c1=O ; result: 2 µg/mL
Cc1c(N2C[C@@H](N)C3(CC3)C2)c(F)c(N)c2c(=O)c(C(=O)O)cn(C3CC3)c12 ; strain: 20 strains ; result: 6.25 µg/mL
CN(C)[C@@H]1C(=O)C(C(N)=O)=C(O)[C@@]2(O)C(=O)C3=C(O)c4c(O)cccc4[C@@](C)(O)[C@H]3C[C@@H]12 ; strain: 11 strains ; result: >128 µg/mL
NC1[C@H]2CN(c3nc4c(cc3F)c(=O)c(C(=O)O)cn4-c3ccc(F)cc3F)C[C@@H]12 ; strain: 22 strains ; result: >256 µg/mL
CN[C@@H]1[C@@H](O)[C@@H](O[C@@H]2[C@@H](O)[C@H](O[C@H]3O[C@H](CN)CC[C@H]3N)[C@@H](N)C[C@H]2N)OC[C@]1(C)O ; strain: 25 isolates ; result: 32 µg/mL
CN1CCN(CCCN=c2cc3n(-c4ccc(Cl)cc4)c4ccccc4nc-3cc2Nc2ccccc2)CC1 ; strain: 10 srtains ; result: 0.45 µg/mL
CCC(C)N1CCN(c2cc(=O)c3nc4c(oc3c2)c2c(=O)c3c(O)c(C)c5c(c34)=C(O)[C@@](C)(O/C=C/[C@H](OC)[C@@H](C)[C@@H](OC(C)=O)[C@H](C)[C@H](O)[C@H](C)[C@@H](O)[C@@H](C)/C=C/C=C(/C)C(=O)N2)O5)CC1 ; strain: 18 strains ; result: 0.1 µg/mL
NCC[C@H](O)C(=O)N[C@@H]1C[C@H](N)[C@@H](O[C@H]2O[C@H](CN)[C@@H](O)[C@H](O)[C@H]2O)[C@H](O)[C@H]1O[C@H]1O[C@H](CO)[C@@H](O)[C@H](N)[C@H]1O ; strain: 37 strains ; result: 4 µg/mL
COc1cc2c(c3oc(=O)c4c(c13)CCC4=O)C1C=COC1O2 ; strain: 32 isolates ; result: 32 µg/mL
CN1CCCC1CCN=c1cc2n(-c3ccc(Cl)cc3)c3ccccc3nc-2cc1Nc1ccccc1 ; strain: 10 srtains ; result: 0.4 µg/mL
CC[C@H]1OC(=O)[C@H](C)[C@@H](O[C@H]2C[C@@](C)(OC)[C@@H](O)[C@H](C)O2)[C@H](C)[C@@H](O[C@@H]2O[C@H](C)C[C@H](N(C)C)[C@H]2O)[C@](C)(OC)C[C@@H](C)C(=O)[C@H](C)[C@@H](O)[C@]1(C)O ; strain: 20 strains ; result: 2 µg/mL
COC1CCN(c2c(F)cc3c(=O)c(C(=O)O)cn(C4CC4)c3c2F)C1 ; result: 1 µg/mL
CC[C@H]1OC(=O)[C@H](C)[C@@H](O[C@H]2C[C@@](C)(OC)[C@@H](O)[C@H](C)O2)[C@H](C)[C@@H](O[C@@H]2O[C@H](C)C[C@H](N(C)C)[C@H]2O)[C@](C)(O)C[C@@H](C)CN(C)[C@H](C)[C@@H](O)[C@]1(C)O ; strain: 32 isolates ; result: 8 µg/mL
CCn1cc(C(=O)O)c(=O)c2cc(F)c(N3CCNCC3)cc21 ; result: 16 µg/mL
C[C@H]1c2cccc(O)c2C(O)=C2C(=O)[C@]3(O)C(O)=C(C(N)=O)C(=O)[C@@H](N(C)C)[C@@H]3[C@@H](O)[C@@H]21 ; strain: 11 strains ; result: 32 µg/mL
C[C@H]1COc2c(N3CCN(C)CC3)c(F)cc3c(=O)c(C(=O)O)cn1c23 ; strain: 20 strains ; result: 6.25 µg/mL
CCOc1c(N2CCC(C(C)(C)N)C2)c(F)cc2c(=O)c(C(=O)O)cn(C3CC3)c12 ; result: 4 µg/mL
CN[C@@H]1[C@H](O[C@H]2[C@H](O[C@H]3[C@H](O)[C@@H](O)[C@H](N=C(N)N)[C@@H](O)[C@@H]3N=C(N)N)O[C@@H](C)[C@]2(O)C=O)O[C@@H](CO)[C@H](O)[C@H]1O ; result: >0.4 µg/mL
CC[C@H]1OC(=O)[C@H](C)C(=O)[C@H](C)[C@@H](O[C@@H]2O[C@H](C)C[C@H](N(C)C)[C@H]2O)[C@](C)(OC)C[C@@H](C)C(=O)[C@H](C)[C@H]2N(CCCCn3cnc(-c4cccnc4)c3)C(=O)O[C@]12C ; strain: 24 isolates (HIV+) ; result: 128 µg/mL
C[C@H]1COc2c(N3CCN(C)CC3)c(F)cc3c(=O)c(C(=O)O)cn1c23 ; result: 8–32 µg/mL
CC1CN(c2c(F)cc3c(=O)c(C(=O)O)cn(C4CC4)c3c2F)C(C)CN1 ; result: 2 µg/mL
C[C@@H]1CN(c2nc3c(cc2F)c(=O)c(C(=O)O)cn3C(C)(C)C)C[C@H](C)N1 ; strain: 14 strains ; result: 0.5 µg/mL
CC1CCN(c2c(F)cc3c(=O)c(C(=O)O)cn(C4CC4)c3c2F)C1 ; strain: 14 strains ; result: 2 µg/mL

The first 4 rows once more:

SMILES,strain,result
O=C(O)c1cn(-c2ccc(F)cc2F)c2c(F)c(N3CCNCC3)c(F)cc2c1=O,14 strains,16 µg/mL
COc1c(N2CCNC(C)C2)c(F)cc2c(=O)c(C(=O)O)cn(C3CC3)c12,20 strains,3.13 µg/mL
NC1CN(c2cc3c(cc2F)c(=O)c(C(=O)O)cn3C2CC2)CC1C1CC1,-,8 µg/mL
O=C(O)c1cn(C2CC2)c2c(F)c(N3CCS(=O)(=O)CC3)c(F)cc2c1=O,14 strains,2 µg/mL